Measured data: PubChem BioAssay AID1259414 (Drosophila RNAi Screening Center, 2018)
The deposit covers about 24,000 reagents; shown is an unselected part of those that have a named target and a result. Over the whole deposit, about 1,210 (5%) are marked active. 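Inactive calls also include excluded dsRNAs with several or no targets, genes unexpressed in JW18, and well A1, regardless of score.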 A number with no mark means an inactive call. A plus sign joins genes that one reagent is predicted to hit. Reagent sequences are not shown.

- Purpose: 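Genome-wide screen for host control of endosymbiont load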 (primary screen)
- Cells: Drosophila JW18 cells infected with Wolbachia
- Knock-down reagent: long dsRNA against Drosophila genes, 0.25 µg dsRNA per well of a 384-well plate
- Time to read-out: 5 days
- Treatment: cells persistently infected with Wolbachia before knock-down; no added drug
- Measurement: 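Imaged fluorescence in situ signal for Wolbachia 23S rRNA per DAPI-counted host cell, given as a robust z-score within each plate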
- Scale: Wolbachia per cell robust z: higher = more Wolbachia per host cell than the plate typical
- Call rule: 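Hit when robust z is 1.5 or more, or -1.5 or less, in at least two of three replicates; excludes dsRNAs with several or no targets, genes not expressed in JW18 and well A1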

no.	gene	PubChem SID	Wolbachia per cell robust z, rep 1	Wolbachia per cell robust z, rep 2	Wolbachia per cell robust z, rep 3
1	CG11029	SID104181911	1.16	0.0685	1.17
2	oxt	SID104188314	0.456	-0.434	0.0215
3	SclB + SclA	SID104201699	-1.51	-1.61	-0.65
4	Hsp70Bc + Hsp70Bbb + Hsp70Bb + 3 more	SID104195172	1.35	0.48	0.679
5	klhl10	SID104215497	-0.607	0.0976	1.17
6	klhl10	SID104216359	-0.871	0.733	1.68
7	CG3062	SID104198364	-1.65	-2.71	-0.342
8	RagC-D	SID104187031	0.517	0.582	0.436
9	CG34258	SID104216260	-0.464	-0.176	-0.607
10	CG6118	SID104202554	0.356	0.551	0.658
11	CG6118	SID104208466	0.757	-0.795	0.22
12	CG15098	SID104186319	-3.37	0.0663	0.206
13	CG15098	SID104208510	1.29	-0.55	-0.365
14	CG34051	SID104181531	-0.73 (active)	-5.48	-2.35
15	CCT5	SID104187149	1.59 (active)	-0.537	2.57
16	CCT5	SID104204773	0.822	-0.207	0.62
17	ppk12	SID104183878	-3.56	-5.42	0.109
18	Cpr51A	SID104185761	-0.906	1.04	0.414
19	CG18180	SID104190096	-8.3 (active)	-8.98	-0.873
20	CG18180	SID104203950	-0.399	-0.361	-0.543
21	CG15279	SID104181727	-8.35 (active)	-0.62	-8.8
22	CG15279	SID104205891	0.876	0.243	-4.34
23	Mms19	SID104191980	0.599	0.235	-0.62
24	Mms19	SID104205716	0.124	1.02	0.316
25	Iswi	SID104187238	0.806	0.586	0.954
26	Iswi	SID104204591	0.836	0.743	0.374
27	CG31861	SID104201350	-0.549	-0.036	-1.07
28	CG31861	SID104207823	1.13	-0.453	-0.53
29	bou	SID104197716	0.632	-4.98	0.423
30	CG13085	SID104181981	-0.0138	-1.13	0.532
31	CG13085	SID104206643	0.399	0.618	-0.478
32	CG10576	SID104189537	0.846	0.465	-3.99
33	Rac1	SID104188480	2.7	1.19	1.07
34	Rac1	SID104203677	0.126	-0.673	1.07
35	Josd	SID104198115	-2.5 (active)	-0.962	-1.71
36	elav	SID104198564	-0.011	-3.26	-0.449
37	Cpsf160	SID104185760	0.0534	0.0465	1.2
38	CG31633	SID104182067	0.699	-6.45	0.498
39	CG31633	SID104205566	-2.58	-0.00202	-1.25
40	sca	SID104187469	0.593	0.177	0.943
41	sca	SID104208059	-0.979	0.366	0.692
42	Hsc70-3	SID104200045	0.659	0.678	1.1
43	Hsc70-3	SID104203651	0.945	0.71	1.37
44	nac	SID104196312	-2.42	0.223	-0.417
45	CG15071	SID104186296	0.314	-0.204	0.176
46	CG15071	SID104206873	0.693	-0.476	-1.03
47	Cpr78E	SID104191599	0.239	0.253	-1.26
48	wam	SID104194963	0.815	0.258	0.436
49	Dh44-R1	SID104186964	-0.814	-1.75	0.377
50	Dh44-R1	SID104207528	0.703	0.338	0.0498
51	CG13360	SID104198328	-0.107	0.316	0.689
52	CG13360	SID104207023	-0.966	1.51	1.05

The list goes on, starting with the last 6 of the part before.
no.	gene	PubChem SID	Wolbachia per cell robust z, rep 1	Wolbachia per cell robust z, rep 2	Wolbachia per cell robust z, rep 3
47	Cpr78E	SID104191599	0.239	0.253	-1.26
48	wam	SID104194963	0.815	0.258	0.436
49	Dh44-R1	SID104186964	-0.814	-1.75	0.377
50	Dh44-R1	SID104207528	0.703	0.338	0.0498
51	CG13360	SID104198328	-0.107	0.316	0.689
52	CG13360	SID104207023	-0.966	1.51	1.05
53	CG8004	SID104190739	-0.0708	0.106	-0.663
54	CG8004	SID104205159	-0.0674	0.739	0.871
55	Mocs1	SID104191017	-2.45 (active)	-1.52	0.785
56	TORIP	SID104189896	0.607	-1.59	-0.165
57	CG15537	SID104194865	-3.47	0.313	0.971
58	CG15537	SID104204133	-0.0416	1.12	0.721
59	CG17258	SID104180287	-1.14	0.679	-0.155
60	CG17258	SID104202094	-1.29	-0.632	0.583
61	CG17258	SID104207068	-0.448	-0.408	0.137
62	CG43188	SID104218109	0.379	0.238	0.986
63	Ctr9	SID104188354	0.712	0.2	-0.548
64	Ctr9	SID104205852	0.14	0.945	-1.48
65	SrpRalpha	SID104200043	0.514	0.0667	-8.63
66	lncRNA:CR42657	SID104218916	-0.513	-0.253	0.313
67	CG13330 + Vmat	SID104207144	0.637	-0.246	-0.043
68	Tig	SID104183248	1.09	1.34	1.57
69	Tig	SID104206932	0.623	0.266	1.24
70	Mgat1	SID104187255	0.846	0.904	1.19
71	CG9062	SID104187119	-2.13	-1.01	-0.684
72	CG9062	SID104206102	-4.37 (active)	-2.39	-1.58
73	CheA84a	SID104215494	0.85	-0.255	0.907
74	Cirl	SID104202592	0.955	-0.523	0.462
75	Cirl	SID104206824	1.34	0.677	0.647
76	lncRNA:CR40469 + lncRNA:CR34335	SID104216330	-0.674	0.218	-0.69
77	Ttc26	SID104195383	0.394	0.151	1.1
78	Ttc26	SID104205781	-2.72	0.123	-0.142
79	Rack1	SID104183197	0.0684	0.857	0.285
80	Rack1	SID104202891	0.58 (active)	2.55	4.34
81	Msp300	SID104180648	0.801	-0.000275	1.34
82	Msp300	SID104180649	-0.472 (active)	-3.31	-1.72
83	Msp300	SID104180650	-1.48	-0.889	-2.26
84	Msp300	SID104182152	0.505	-0.457	-1.62
85	Msp300	SID104183161	-1.34	-0.724	-0.988
86	Msp300	SID104183162	-0.262	-0.581	-0.842
87	Msp300	SID104218252	0.959	0.506	-0.736
